Results of unrelated studies side by side (data: NIAID ChemDB).

Shared fields: target-level tests; species: HIV-1; target: Protease; endpoint: inhibition

Percent inhibition refers to the dose given; in toxicity tests it is the harm to the cells. Conditions beyond the fields shown may differ between rows. Blank or dashed fields: not listed here.

CCOC(=O)[C@@]1(C)CC[C@]2(C)CC[C@]3(C)C(=CC(=O)[C@@H]4[C@@]5(C)CC/C(=N\OCc6ccc(C(=O)OC)o6)C(C)(C)[C@@H]5CC[C@]43C)[C@@H]2C1 ; method: substrate cleavage / fluorescence ; dose: 1000 µg/mL ; value: 70.5%
CC[C@H](C)[C@@H](C(=O)OC)N1C[C@@H]2O[C@H](C(=O)N3CCCCC3)[C@@H](O2)C1=O ; method: FRET ; dose: 10 µM ; value: 0%
CCOC(=O)[C@@]1(C)CC[C@]2(C)CC[C@]3(C)C(=CC(=O)[C@@H]4[C@@]5(C)CC/C(=N\OCc6ccc(Br)cc6)C(C)(C)[C@@H]5CC[C@]43C)[C@@H]2C1 ; method: substrate cleavage / fluorescence ; dose: 1000 µg/mL ; value: 26.8%
CCCCCCNC(=O)[C@@H]1O[C@@H]2CN(Cc3ccccc3)C(=O)[C@H]1O2 ; method: FRET ; dose: 10 µM ; value: 0%
CC[C@@H](C)[C@H](NC(=O)[C@@H]1CCCN1C(=O)[C@@H](O)[C@H](CC1CCCCC1)NC(=O)[C@H](CC(N)=O)NC(=O)[C@@H]1Cc2ccccc2N1)C(=O)N[C@H](C(N)=O)C(C)C ; dose: 5 µM ; value: 94.5%
CC(C)[C@H](NC(=O)/C=C/C(=O)N[C@H](C(=O)OCc1ccccc1)C(C)C)C(=O)OCc1ccccc1 ; method: absorbance ; dose: 10 µM ; value: <10%
CC(C)C[C@H](CO)NC(=O)[C@@H]1O[C@@H]2CN(Cc3ccccc3)C(=O)[C@H]1O2 ; method: FRET ; dose: 10 µM ; value: 0%
CC[C@@H](C)[C@H](NC(=O)[C@@H]1CCCN1C(=O)[C@@H](O)[C@H](CC1CCCCC1)NC(=O)[C@H](CC(N)=O)NC(=O)[C@H]1Cc2ccccc2CN1)C(=O)N[C@H](C(N)=O)C(C)C ; dose: 5 µM ; value: 71%
CCOC(=O)[C@@]1(C)CC[C@]2(C)CC[C@]3(C)C(=CC(=O)[C@@H]4[C@@]5(C)CC/C(=N\OCc6cccc(Cl)c6)C(C)(C)[C@@H]5CC[C@]43C)[C@@H]2C1 ; method: substrate cleavage / fluorescence ; dose: 1000 µg/mL ; value: 12.4%
CC(C)COC(=O)[C@H](Cc1ccc(OCc2ccccc2)cc1)NC(=O)C(=O)N[C@@H](Cc1ccc(OCc2ccccc2)cc1)C(=O)OCC(C)C ; method: absorbance ; dose: 10 µM ; value: 24%
CCOC(=O)[C@@]1(C)CC[C@]2(C)CC[C@]3(C)C(=CC(=O)[C@@H]4[C@@]5(C)CC/C(=N\OCc6ccccc6F)C(C)(C)[C@@H]5CC[C@]43C)[C@@H]2C1 ; method: substrate cleavage / fluorescence ; dose: 1000 µg/mL ; value: 21.1%
CC(C)CNC(=O)[C@H](Cc1ccccc1)NC(=O)[C@H](O)[C@H](Cc1ccccc1)NC(=O)[C@@H](NC(=O)OCc1ccccc1)C(C)C ; dose: 5 µM ; value: 15.1%
CCOC(=O)[C@@]1(C)CC[C@]2(C)CC[C@]3(C)C(=CC(=O)[C@@H]4[C@@]5(C)CC/C(=N\OCc6ccccc6C#N)C(C)(C)[C@@H]5CC[C@]43C)[C@@H]2C1 ; method: substrate cleavage / fluorescence ; dose: 1000 µg/mL ; value: 29.2%
CC(C)(C)OC(=O)N[C@@H](CO)C(=O)N[C@@H](Cc1ccccc1)[C@H](O)C(=O)NCC1CCCCC1 ; dose: 1000 µM ; value: 84.4%
O=C([C@@H]1O[C@@H]2CN(Cc3ccccc3)C(=S)[C@H]1O2)N1CCCCC1 ; method: FRET ; dose: 10 µM ; value: 0%
CCOC(=O)[C@@]1(C)CC[C@]2(C)CC[C@]3(C)C(=CC(=O)[C@@H]4[C@@]5(C)CC/C(=N\OCc6cccc(C)c6)C(C)(C)[C@@H]5CC[C@]43C)[C@@H]2C1 ; method: substrate cleavage / fluorescence ; dose: 1000 µg/mL ; value: 4.51%
NC(=O)C[C@H](NC(=O)OCc1ccccc1)C(=O)N[C@@H](Cc1ccccc1)[C@H](O)C(=O)N1CCC[C@H]1C(=O)NC1CCCCC1 ; dose: 5 µM ; value: 90.4%
CC(C)COC(=O)C(Cc1cccc(F)c1)NC(=O)C(=O)NC(Cc1cccc(F)c1)C(=O)OCC(C)C ; method: absorbance ; dose: 10 µM ; value: 24%
CCOC(=O)c1ccc(CO/N=C2\CC[C@]3(C)[C@H]4C(=O)C=C5[C@@H]6C[C@@](C)(C(=O)OCC)CC[C@]6(C)CC[C@@]5(C)[C@]4(C)CC[C@H]3C2(C)C)o1 ; method: substrate cleavage / fluorescence ; dose: 1000 µg/mL ; value: 34.6%
CC(C)(CO)NC(=O)[C@@H]1CSCN1C(=O)[C@@H](O)[C@H](Cc1ccccc1)NC(=O)[C@H](CS(C)(=O)=O)NC(=O)COc1cccc2ccccc12 ; dose: 0.05 µM ; value: 91.8%
O=C([C@H]1O[C@H]2CN(Cc3ccccc3)C(=O)[C@@H]1O2)N1CCCCC1 ; method: FRET ; dose: 10 µM ; value: 0%
CC(C)(CO)NC(=O)[C@@H]1CCCN1C(=O)[C@@H](O)[C@H](Cc1ccccc1)NC(=O)[C@H](CC(N)=O)NC(=O)OCc1ccccc1 ; dose: 0.05 µM ; value: 37.8%
CCOC(=O)[C@@]1(C)CC[C@]2(C)CC[C@]3(C)C(=CC(=O)[C@@H]4[C@@]5(C)CC/C(=N\OCc6cccc(Br)c6)C(C)(C)[C@@H]5CC[C@]43C)[C@@H]2C1 ; method: substrate cleavage / fluorescence ; dose: 1000 µg/mL ; value: 25.5%
CC[C@@H](C)[C@H](NC(=O)[C@@H]1CCCN1C(=O)[C@@H](O)[C@H](Cc1ccccc1)NC(=O)[C@H](CC(N)=O)NC(=O)c1ccccn1)C(=O)N[C@H](C(N)=O)C(C)C ; dose: 5 µM ; value: 93.6%
CCCCOC(=O)[C@H](Cc1ccccc1)NC(=O)C(=O)N[C@@H](Cc1ccccc1)C(=O)OCCCC ; method: absorbance ; dose: 10 µM ; value: <10%

The last 2 rows once more:

SMILES,method,dose,value
CC[C@@H](C)[C@H](NC(=O)[C@@H]1CCCN1C(=O)[C@@H](O)[C@H](Cc1ccccc1)NC(=O)[C@H](CC(N)=O)NC(=O)c1ccccn1)C(=O)N[C@H](C(N)=O)C(C)C,-,5 µM,93.6%
CCCCOC(=O)[C@H](Cc1ccccc1)NC(=O)C(=O)N[C@@H](Cc1ccccc1)C(=O)OCCCC,absorbance,10 µM,<10%